A mixed list of measured activities; the numbers were collected in NIAID ChemDB.

All rows: tests in culture; organism: Mycobacterium tuberculosis

An empty or dashed field is not shown. ECn: concentration that inhibits the pathogen or its effect by n%. MIC bound: limit read from a one-dose screen. Conditions beyond the fields shown may differ between rows. Inhibition is in % at the dose shown (toxicity tests: loss of growth or viability). Two numbers with a dash give a range or band. A number after MIC or MFC names an inhibition level or a share of isolates.

| structure | mutations | tested at | endpoint | setting | read by | strain or isolate | value |
|---|---|---|---|---|---|---|---|
| CC(=O)N1CCCCCC1=O |  |  | MIC bound |  | BACTEC | H37Rv | >12.5 µg/mL |
| COc1cc2c(cc1OC)CN(c1cc3c(=O)c(C(=O)O)c4n(c3cc1F)CS4)CC2 | MDR-TB |  | MIC |  | agar | H37Rv | 7.07 µM |
| CO[C@@]1(NC(=O)Cc2cccs2)C(=O)N2C(C(=O)O)=C(COC(N)=O)CS[C@@H]21 |  |  | MIC |  |  | Isolate 1 | >16 µg/mL |
| CCN(CC)CCNc1ccc(C)c2sc3cccc(O)c3c(=O)c12 |  |  | MIC bound |  | BACTEC | H37Rv | ≤12.5 µg/mL |
| Cc1ccc(/C=N/N=c2/scc(-c3cc4cc(Br)ccc4oc3=O)n2C2CCCCC2)cc1 |  | 6.25 µg/mL | inhibition |  |  | H37Rv | 5% |
| O=C1CC(c2ccccc2O)Oc2ccccc21 |  | 12.5 µg/mL | inhibition |  |  | H37Rv | 1% |
| COc1ccc(/C=N/N=c2/scc(-c3cc4ccccc4oc3=O)n2C2CCCCC2)cc1OC |  | 6.25 µg/mL | inhibition |  |  | H37Rv | 1% |
| C=C1CC(C2OCOC3COCOC32)OC1=O |  | 12.5 µg/mL | inhibition |  | BACTEC | H37Rv | 22% |
| CSc1ccc(C2C(C(=O)Nc3cccc([N+](=O)[O-])c3)=C(C)NC(C)=C2C(=O)Nc2cccc([N+](=O)[O-])c2)cc1 |  | 2.5 µg/mL | inhibition |  |  | H37Rv | 98% |
| CC(C)C1(Cl)CCC2C3(C)CCCC(C)(C(=O)O)C3CC(Cl)C2(Cl)C1Cl |  | 12.5 µg/mL | inhibition |  | BACTEC | H37Rv | 19% |
| COc1ccc(OC)c(CCNCCNC23CC4CC(CC2C4)C3)c1 |  |  | MIC |  |  |  | 25 µM |
| CC1(C)O[C@H]2OC([C@H](CCO)NCCCCCCCN[C@@H](CCO)C3O[C@@H]4OC(C)(C)O[C@@H]4[C@H]3OCc3ccccc3)[C@H](OCc3ccccc3)[C@H]2O1 |  |  | MIC |  |  | H37Rv | >50 µg/mL |
| C[C@@H]1Oc2nc([N+](=O)[O-])cn2C[C@@H]1OCc1ccc(OC(F)(F)F)cc1 |  |  | MIC |  | absorbance | H37Rv-T2 | >100 µM |
| COc1cc2oc3c(c(=O)c2c(O)c1/C=C/C(C)C)C(C=C(C)C)Oc1cc(O)ccc1-3 |  |  | MIC |  |  | PZA-R | >12.5 µg/mL |
| C[C@]1(COc2ccc(N3CCC(Oc4ccc(OC(F)(F)F)cc4)CC3)cc2)Cn2cc([N+](=O)[O-])nc2O1 |  |  | MIC |  |  | H37Rv (SM-resistant) | 0.012 µg/mL |
| CN(C)c1ccc2c(=O)c(C(=O)O)c[nH]c2c1 |  |  | MIC bound |  | BACTEC | H37Rv | >12.5 µg/mL |
| COc1ccc(CC2C3=C(CCCC3)CCN2c2cc3c(=O)c(C(=O)O)c4n(c3cc2F)CS4)cc1 |  |  | MIC |  | agar | H37Rv | 12.33 µM |
| NC(=O)c1nc(-c2ccccc2)sc1C(N)=O |  |  | MIC bound |  | BACTEC | H37Rv | >12.5 µg/mL |
| CC1(C)C[C@H]2[C@@H](C1)[C@@H](C(CCO)NCCCCCCCCCNC(CCO)[C@H]1O[C@@H]3CC(C)(C)C[C@@H]3[C@H]3CC(C)(C)C[C@H]31)O[C@@H]1CC(C)(C)C[C@H]21 |  |  | MIC |  |  | H37Rv | >25 µg/mL |
| COc1ccc(Br)c2c1C(=O)CC(c1ccccc1)O2 |  |  | EC50 |  |  |  | <12.5 µg/mL |
| O=c1c2ccccc2nc2n1OCC2 |  |  | MIC bound |  | BACTEC | H37Rv | >12.5 µg/mL |
| CCOC(=O)CC(NCCCCCCCCCCCCNC(CC(=O)OCC)[C@H]1O[C@@H]2CC(C)(C)C[C@@H]2[C@H]2CC(C)(C)C[C@H]21)[C@H]1O[C@@H]2CC(C)(C)C[C@@H]2[C@H]2CC(C)(C)C[C@H]21 |  |  | MIC |  |  | H37Rv | >25 µg/mL |
| COc1ccc(C2CC(=O)c3ccccc3O2)cc1 |  |  | EC50 |  |  | H37Rv | >12.5 µg/mL |
| CC(=O)OC[C@H]1O[C@@H](Oc2ccc(C=C(C(C)=O)C(C)=O)cc2)[C@H](OC(C)=O)[C@@H](OC(C)=O)[C@@H]1OC(C)=O |  | 6.25 µg/mL | inhibition |  | resazurin | H37Rv | 0% |
| OC[C@H](Cc1ccc(Cl)cc1)NCCNCCc1ccc(Cl)cc1Cl |  |  | MIC |  |  |  | 25 µM |
| COc1ccc(O)c(C(=O)/C=C/c2ccco2)c1 |  | 12.5 µg/mL | inhibition |  |  |  | 0% |
| CN(C)CCCN1c2ccccc2Sc2ccc(Cl)cc21 |  |  | MIC |  |  | Isolate E (drug-resistant) | 20 µg/mL |
| CCCCCCCCCCCNCCNCCCO |  |  | MIC |  |  |  | 50 µM |
| COc1cc(OC)c2c(c1)OC(c1ccc(OC)c(I)c1)CC2=O |  | 12.5 µg/mL | inhibition |  |  | H37Rv | 0% |
| CC1OC(n2ccc(NC(=O)c3ccc(NC(=O)C(C)(N)CO)cc3)nc2=O)CCC1OC1OC(C)C(N(C)C)C(O)C1O |  |  | MIC |  |  | TAC-R | 0.8 µg/mL |
| CCOC(=O)CC(NCCCCNC(CC(=O)OCC)[C@H]1O[C@@H]2CC(C)(C)C[C@@H]2[C@H]2CC(C)(C)C[C@H]21)[C@H]1O[C@@H]2CC(C)(C)C[C@@H]2[C@H]2CC(C)(C)C[C@H]21 |  |  | MIC |  |  | H37Rv | >25 µg/mL |
| CC(NCCNCCC(c1ccccc1)c1ccccc1)C12CC3CC(CC(C3)C1)C2 |  |  | MIC |  |  |  | 6.25 µM |
| CC1=C(C(=O)Nc2cccc([N+](=O)[O-])c2)C(c2ccccc2Cl)C(C(=O)Nc2cccc([N+](=O)[O-])c2)=C(C)N1 |  |  | EC50 |  |  | H37Rv | <2.5 µg/mL |
| C[n+]1cccc(C(N)=O)c1.[I-] |  |  | MIC |  | BACTEC | H37Rv | ≥12.5 µg/mL |
| O=C1CC(c2cccc(Cl)c2)Oc2ccccc21 |  |  | EC50 |  |  |  | >12.5 µg/mL |
| CC(=O)OCC1=C(C(=O)O)N2C(=O)[C@@H](NC(=O)Cc3cccs3)[C@H]2SC1 |  |  | MIC |  |  | Isolate 4 | >16 µg/mL |
| C[C@H]1COc2c(N3CCN(C)CC3)c(F)cc3c(=O)c(C(=O)O)cn1c23 | katG mutant isoniazid resistant |  | MIC |  | resazurin | INH-R1 | 0.44 µg/mL |
| CCOC(=O)c1cn(C)c2c(cc([N+](=O)[O-])c3cccnc32)c1=O | gyrA mutation A90V gyrB mutation Q540V |  | MIC90 |  |  | H37Rv | >50 µM |
| CCC(C)(C)NCCNCC(c1ccccc1)c1ccccc1 |  |  | MIC |  |  |  | 12.5 µM |
| O=c1oc2ccccc2cc1-c1cs/c(=N/N=C/c2ccc(Br)cc2)n1C1CCCCC1 |  |  | MIC |  |  | H37Rv | >6.25 µg/mL |
| c1ccc(C(NCCNCc2ccc3c(c2)OCO3)c2ccccc2)cc1 |  |  | MIC |  |  |  | 50 µM |
| O=C(O)c1cn2c(n1)CN(c1cc3c(=O)c(C(=O)O)c4n(c3cc1F)CS4)CC2 | MDR-TB |  | MIC |  | agar | H37Rv | 0.22 µM |
| CCCCN(CCNC[C@@H]1CC[C@H]2C[C@@H]1C2(C)C)Cc1ccccc1 |  |  | MIC |  |  |  | 50 µM |
| CC1=C(C(=O)Nc2ccc([N+](=O)[O-])cc2)C(c2ccc(Cl)cc2Cl)C(C(=O)Nc2ccc([N+](=O)[O-])cc2)=C(C)N1 |  | 2.5 µg/mL | inhibition |  |  | H37Rv | 96% |
| C/C(=N\NC(=O)c1cccnc1)c1cccc(/C(C)=N/NC(=O)c2cccnc2)n1 |  |  | MIC |  |  | H37Rv | >12.5 µg/mL |
| O=c1oc2ccccc2cc1-c1cs/c(=N/N=C/c2ccc(F)cc2)n1C1CCCCC1 |  | 6.25 µg/mL | inhibition |  |  | H37Rv | 0% |
| CC1(C)[C@H](C(=O)O)N2C(=O)C[C@H]2S1(=O)=O |  |  | MIC |  |  | Isolate 5 | >16 µg/mL |
| COC(=O)CCC(NC(=S)N/N=C(\C)c1cnccn1)C(=O)OC |  |  | MIC bound |  | BACTEC | H37Rv | >12.5 µg/mL |
| CC1(C)S[C@@H]2[C@H](NC(=O)[C@H](N)c3ccc(O)cc3)C(=O)N2[C@H]1C(=O)O |  |  | MIC |  |  | Isolate 2 | 16 µg/mL |
| O=C(Oc1cc(Cl)ccc1C(=O)Nc1ccc(Cl)c(Cl)c1)c1cnccn1 |  |  | MIC | 21 d |  | H37Rv 331/88 | 2 µM |
| C1COC(CNCCNCC23CC4CC(CC(C4)C2)C3)C1 |  |  | MIC |  |  |  | 50 µM |
| CCC1C[N+]2=C(c3cc(OC)c(OC)cc3CC2)c2c1cc1n2CCc2cc(OC)c(OC)cc2-1 |  |  | MIC |  |  | INH-r | 12.8 µg/mL |
| Nc1ccc(C(=O)O)c(O)c1 |  |  | EC50 |  |  | 7800 | <0.76 µM |
| O=C(O)c1c2n(c3cc([N+](=O)[O-])c(N4CCC5(CC4)OCCO5)cc3c1=O)CS2 |  |  | MIC |  | agar | H37Rv | 0.09 µM |
| C[C@H](O)CNCCNCCc1ccccc1 |  |  | MIC |  |  |  | 50 µM |
| CCOC(=O)CC(NCCCCCCCNC(CC(=O)OCC)[C@H]1O[C@@H]2CC(C)(C)C[C@@H]2[C@H]2CC(C)(C)C[C@H]21)[C@H]1O[C@@H]2CC(C)(C)C[C@@H]2[C@H]2CC(C)(C)C[C@H]21 |  |  | MIC |  |  | H37Rv | >25 µg/mL |
| O=c1oc2ccc(Br)cc2cc1-c1cs/c(=N/N=C/c2ccc(Br)cc2)n1C1CCCCC1 |  |  | MIC |  |  | H37Rv | >6.25 µg/mL |
| CCOC(=O)C[C@H](NCCCCCCCN[C@H](CC(=O)OCC)[C@H]1O[C@@H]2CC(C)(C)C[C@@H]2[C@H]2CC(C)(C)C[C@H]21)[C@H]1O[C@@H]2CC(C)(C)C[C@@H]2[C@H]2CC(C)(C)C[C@H]21 |  |  | MIC |  |  | H37Rv | 25 µg/mL |
| O=C(CCn1[nH]c(=O)c(Cl)c(Cl)c1=O)NNC(=O)C[n+]1ccccc1.[Cl-] |  |  | MIC bound |  | BACTEC | H37Rv | >12.5 µg/mL |
| O=C(Oc1ccc(Cl)cc1)c1cnccn1 |  |  | MIC | 21 d |  | 331/88 | 250 µM |
| O=c1oc2ccc(Br)cc2cc1-c1cs/c(=N/N=C/c2ccc(Cl)c(Cl)c2)n1C1CCCCC1 |  |  | MIC |  |  | H37Rv | >6.25 µg/mL |
| CO[C@H]1/C=C/O[C@@]2(C)Oc3c(C)c(O)c4c(O)c(c(/C=N/N5CCN(C)CC5)c(O)c4c3C2=O)NC(=O)/C(C)=C\C=C\[C@H](C)[C@H](O)[C@@H](C)[C@@H](O)[C@@H](C)[C@H](OC(C)=O)[C@@H]1C | gyrB mutant fluoroquinolone resistant |  | MIC |  | resazurin | FQ-R1 | 0.017 µg/mL |
| O=C(O)c1c2n(c3cc(F)c(N4CCC(O)(c5ccc(Cl)cc5)CC4)cc3c1=O)CS2 |  |  | MIC |  | agar | H37Rv | 3.38 µM |
| CSc1ccc(C2C(C(=O)Nc3ccc([N+](=O)[O-])cc3)=C(C)NC(C)=C2C(=O)Nc2ccc([N+](=O)[O-])cc2)cc1 |  |  | EC50 |  |  | H37Rv | <2.5 µg/mL |
| O=C(CN1CCN(c2ccccn2)CC1)N1CCCn2c1nc1ccccc1c2=O |  |  | MIC bound |  | BACTEC | H37Rv | >12.5 µg/mL |
| O=c1oc2ccc(Br)cc2cc1-c1cs/c(=N/N=C/c2cc([N+](=O)[O-])ccc2O)n1C1CCCCC1 |  |  | EC50 |  |  | H37Rv | >6.25 µg/mL |
| CCOC(=O)c1cn(CC)c2c(cc([N+](=O)[O-])c3cccnc32)c1=O | gyrA mutation D94G |  | MIC90 |  |  | BCG | 2.5 µM |
| O=C(Oc1ccc(Cl)cc1C(=O)Nc1ccc(Cl)c(Cl)c1)c1cnccn1 |  |  | MIC | 14 d |  | multidrug resistant Praha 1 | 0.25 µM |
| CO[C@H]1/C=C/O[C@@]2(C)Oc3c(C)c(O)c4c(O)c(c(/C=N/N5CCN(C6CCCC6)CC5)c(O)c4c3C2=O)NC(=O)/C(C)=C\C=C\[C@H](C)[C@H](O)[C@@H](C)[C@@H](O)[C@@H](C)[C@H](O)[C@@H]1C |  |  | MIC |  |  | Atencio | 0.12 µg/mL |
| CN1CN(C)N(C(=O)c2ccccc2)CN1C(=O)c1ccccc1 |  |  | MIC |  | BACTEC | H37Rv | ≥12.5 µg/mL |
| NNC(=O)c1ccncc1 |  |  | MIC | 21 d |  | H37Rv 331/88 | 0.5–1 µM |
| CC(=O)Nc1ccc(N=Nc2c(C)nn(C(=N)N)c2C)cc1 |  |  | MIC bound |  | BACTEC | H37Rv | >12.5 µg/mL |
| CN1CCN(c2cc3c(=O)c(C(=O)O)c4n(c3cc2[N+](=O)[O-])CS4)CC1c1ccccc1 |  |  | MIC |  | agar | H37Rv | 3.45 µM |
| Nc1c(-c2nc3ccc4c(c3s2)C(=O)c2ccccc2C4=O)ccc2c1C(=O)c1ccccc1C2=O |  | 12.5 µg/mL | inhibition |  | BACTEC | H37Rv | -7% |
| O=C1c2ccccc2OC(c2ccccc2)C1(Br)Br |  |  | EC50 |  |  |  | >12.5 µg/mL |
| O=C1C2C3CCC(O3)C2C(=O)N1N1C(=O)C2C3CCC(O3)C2C1=O |  |  | MIC bound |  | BACTEC | H37Rv | >12.5 µg/mL |
| O=C(Oc1ccc(Cl)cc1C(=O)Nc1cccc(C(F)(F)F)c1)c1cnccn1 |  |  | MIC | 14 d |  | H37Rv 331/88 | 1 µM |
| CC(=O)Oc1ccc([C@@H]2CC(=O)c3c(cc(OC(C)=O)c(-c4c(OC(C)=O)cc(OC(C)=O)c5c4O[C@H](c4ccc(OC(C)=O)cc4)CC5=O)c3OC(C)=O)O2)cc1 |  |  | EC50 |  |  |  | >12.5 µg/mL |
| COc1ccc(/C=N/N=c2\scc(-c3cc4cc(Br)ccc4oc3=O)n2C2CCCCC2)cc1 |  | 6.25 µg/mL | inhibition |  |  | H37Rv | 58% |